IC50 data for 6 compounds are collected here from ChEMBL document CHEMBL3414532 (J Med Chem, 2015).

In general, IC50 refers to the point on the concentration scale where inhibition reaches its midpoint.

For assay [1], the target named is T1, Human immunodeficiency virus type 1 reverse transcriptase (Human immunodeficiency virus 1, UniProt Q72547, Y181C). Kind of assay: Inhibition of HIV1 reverse transcriptase Y181C mutant associated RNase H domain activity assessed as reduction in internal cleavage using HTS-1 RNA/DNA duplex substrate by fluorescence assay.
For assay [2], the target named is T1, Human immunodeficiency virus type 1 reverse transcriptase. The assay can be described thus: Inhibition of HIV1 reverse transcriptase Y181C mutant associated RNase H domain activity assessed as reduction in reduction in DNA 3' end directed cleavage using HTS-1 RNA/DNA duplex substrate by fluorescence assay.
The target is the same in assay [3]. The assay can be described thus: Inhibition of HIV1 reverse transcriptase Y181C mutant polymerase activity using [3H]TTP and poly(rA)-oligo(dT)16 substrate incubated for 20 mins by liquid scintillation spectrometry. Summed up: (§1)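 HIV RT (WT or NNRTI-resistant mutant, 10 nM) added to start reaction with 10 μM [3H]-TTP and 40 nM poly(rA)-oligo(dT)16 in 50 mM Tris-HCl pH 7.4, 60 mM KCl, 5 mM MgCl2; 20 min at 37 °C. Quenched with ice-cold 10% TCA/20 mM sodium pyrophosphate, glass-fiber filtered, washed with TCA and ethanol; incorporation counted by scintillation. IC50 as mean ± SD, ≥3 independent experiments.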

Assay [4] has as its target T2, Human immunodeficiency virus type 1 reverse transcriptase (Human immunodeficiency virus 1, UniProt Q72547, K103N/L100I). The assay can be described thus: Inhibition of HIV1 reverse transcriptase L100I/K103N mutant associated RNase H domain activity assessed as reduction in internal cleavage using HTS-1 RNA/DNA duplex substrate by fluorescence assay.
Assay [5] concerns the target T2, Human immunodeficiency virus type 1 reverse transcriptase. The assay can be described thus: Inhibition of HIV1 reverse transcriptase L100I/K103N mutant associated RNase H domain activity assessed as reduction in reduction in DNA 3' end directed cleavage using HTS-1 RNA/DNA duplex substrate by fluorescence assay.
Assay [6] shares this target. Kind of assay: Inhibition of HIV1 reverse transcriptase L100I/K103N mutant polymerase activity using [3H]TTP and poly(rA)-oligo(dT)16 substrate incubated for 20 mins by liquid scintillation spectrometry. Summed up:
as §1

SMILES strings stand for the structures.

Turning to `CS(=O)(=O)c1ccc(-c2ccc(Cc3ccc4c(c3)CC(=O)N(O)C4=O)cc2)cc1`, the IC50 in assay [1] is 800 nM; in assay [2] it was 1400 nM; in assay [3] it was 700 nM; in assay [4], 1200 nM; in assay [5], 1400 nM; in assay [6] it was 500 nM.

For `COc1ccc(-c2ccc(Cc3ccc4c(c3)CC(=O)N(O)C4=O)cc2)cc1`, the IC50 in assay [1] came to 3800 nM; in assay [2], 3900 nM; in assay [3], 1700 nM; in assay [4] it was 1300 nM; in assay [5], 1900 nM; in assay [6], 1000 nM.

Consider `N#Cc1ccc(-c2ccc(Cc3ccc4c(c3)CC(=O)N(O)C4=O)cc2)cc1`, for which the IC50 was 1300 nM in assay [1]; 1800 nM in assay [2]; 800 nM in assay [3]; 900 nM in assay [4]; 800 nM in assay [5]; 300 nM in assay [6].

For the compound `O=C1Cc2cc(Cc3ccc(-c4ccccc4)cc3)ccc2C(=O)N1O`, the IC50 in assay [1] was 900 nM; in assay [2], 1100 nM; in assay [3], 700 nM; in assay [4], 700 nM; in assay [5], 1000 nM; in assay [6], 500 nM.

Consider `O=C1Cc2cc(Cc3ccc(Cl)cc3)ccc2C(=O)N1O`, for which the IC50 in assay [1] is 7000 nM; in assay [2] it was 9000 nM; in assay [3], 5300 nM; in assay [4] it was 8200 nM; in assay [5], 8700 nM; in assay [6], 5100 nM.

Consider `O=C1Cc2cc(Cc3ccc(-c4ccc(F)cc4)cc3)ccc2C(=O)N1O`, for which the IC50 is 4700 nM in assay [1]; 7200 nM in assay [2]; 1700 nM in assay [3]; 2500 nM in assay [4]; 2500 nM in assay [5]; 1500 nM in assay [6].
